Assay results: article PMC12298624, “Anti-Infective Properties, Cytotoxicity, and In Silico ADME Parameters of Novel 4′-(Piperazin-1-yl)benzanilides” (Pharmaceuticals, 2025)

Legend:
HepG2 cells = experiment: Resazurin-based in vitro cytotoxicity with HepG2 cells; format: cell-based, human; conditions: selectivity index HepG2 vs P.f.NF54
Procedure: The HepG2 cells were washed with DPBS (Dulbecco’s PBS without calcium and magnesium, Gibco, Cat #21600-044) and trypsinized with trypsin solution in DPBS. Trypsinization was stopped by adding culture medium, and after being stained with Trypan Blue (SORS Ukraine) cells were counted using a counting chamber (Hausser Scientific, Cat #3500). The cell suspension was placed in a falcon tube containing plating medium DMEM/High glucose with 1% fetal bovine serum, 100 units/mL penicillin, and 100 µg/mL streptomycin. Cells at a density of 250,000 cells/mL were seeded in sterile 384-well plates (Greiner Bio-One, Cat #781091) in a volume of […] and incubated at 37 °C and 5% CO2. Serial dilutions of ten 3-fold dilution steps of test and reference compounds covering a range from 100.0 to 0.005 µM were added to the wells, followed by incubation at 37 °C and 5% CO2 for 48 h. Then, resazurin (50 µM final concentration) was added and plates were incubated for another 3 h. The plates were read with a SpectraMax microplate reader (Molecular Devices Cooperation, Sunnyvale, CA, USA)) using an extinction wavelength of 555 nm and an emission wavelength of 570 nm. IC50 values were calculated using GraphPad Prism 9.0 charting software. Doxorubicin (Sigma Aldrich D1515) was used as control.

L-6 cells = experiment: Resazurin-based in vitro cytotoxicity with L-6 cells; format: cell-based, rat; conditions: selectivity index L-6 vs P.f.NF54
Procedure: Serial drug dilutions of eleven 3-fold dilution steps covering a range from 100 to 0.002 µg/mL were prepared. After 70 h of incubation, the plates were inspected under an inverted microscope to assure growth of the controls and sterile conditions. […] The plates were read with a Spectramax Gemini XS microplate fluorometer (Molecular Devices Cooperation, Sunnyvale, CA, USA) using an excitation wavelength of 536 nm and an emission wavelength of 588 nm. IC50 values were calculated by linear regression from the sigmoidal dose–inhibition curves using SoftmaxPro software Version 8.2.1 (Molecular Devices Cooperation, Sunnyvale, CA, USA). Podophyllotoxin (Sigma P4405) was used as control.

Row | Compound | S.I. = IC50 (Cyt. HepG2)/IC50 (P.f.NF54) (HepG2 cells) | S.I. = IC50 (Cyt. L-6)/ IC50 (P.f.NF54) (L-6 cells)
1 | 2-(4-Fluorophenoxy)-N-[4-(pyrrolidin-4-yl)phenyl]-3-(trifluoromethyl)benzamide [Compound 34] | 23.7 | 110
2 | CCN(CC)CCCC(C)Nc1ccnc2cc(Cl)ccc12 (stereo not drawn) [CQ, chloroquine, reference compound] |  | 9672
3 | CN1CCN(c2ccccc2NC(=O)c2cccc(C(F)(F)F)c2Oc2ccc(F)cc2)CC1 [Compound 31, 2-(4-Fluorophenoxy)-N-[2-(4-methylpiperazin-1-yl)phenyl]-3-(trifluoromethyl)benzamide] |  | 8.59
4 | O=C(Nc1ccccc1N1CCOCC1)c1cccc(C(F)(F)F)c1Oc1ccc(F)cc1 [Compound 32, 2-(4-Fluorophenoxy)-N-[2-(morpholin-4-yl)phenyl]-3-(trifluoromethyl)benzamide] | >32.9 | 53.0
5 | O=C(Nc1ccc(N2CCOCC2)cc1)c1cccc(C(F)(F)F)c1Oc1ccc(F)cc1 [Compound 33, 2-(4-Fluorophenoxy)-N-[4-(morpholin-4-yl)phenyl]-3-(trifluoromethyl)benzamide] | 5.18 | 28.7
6 | CN(C)c1ccccc1NC(=O)c1cccc(C(F)(F)F)c1Oc1ccc(F)cc1 [Compound 35, N-[2-(Dimethylamino)phenyl]-2-(4-fluorophenoxy)-3-(trifluoromethyl)benzamide] |  | 5.70
7 | CN(C)c1ccc(NC(=O)c2cccc(C(F)(F)F)c2Oc2ccc(F)cc2)cc1 [Compound 36, N-[4-(Dimethylamino)phenyl]-2-(4-fluorophenoxy)-3-(trifluoromethyl)benzamide] | >13.2 | 31.5
8 | CN1CCN(C(=O)c2cccc(C(F)(F)F)c2Oc2ccc(F)cc2)CC1 [Compound 49, [2-(4-Fluorophenoxy)-3-(trifluoromethyl)phenyl](4-methylpiperazin-1-yl)methanon] | >1.81 | 2.48
9 | CC(C)(C)OC(=O)N1CCN(C(=O)c2cccc(C(F)(F)F)c2Oc2ccc(F)cc2)CC1 [Compound 50, tert-Butyl-4-[2-(4-fluorophenoxy)-3-(trifluoromethyl)benzoyl]piperazine-1-carboxylate] | 0.68 | 0.80
10 | O=C(c1cccc(C(F)(F)F)c1Oc1ccc(F)cc1)N1CCOCC1 [Compound 51, [2-(4-Fluorophenoxy)-3-(trifluoromethyl)phenyl](morpholin-4-yl)methanon] | >1.23 | 1.89
11 | O=C(c1cccc(C(F)(F)F)c1Oc1ccc(F)cc1)N1CCNCC1 [Compound 52, [2-(4-Fluorophenoxy)-3-(trifluoromethyl)phenyl](piperazin-1-yl)methanon] | >4.32 | 5.85
12 | O=C(Nc1ccccc1N1CCNCC1)c1cccc(C(F)(F)F)c1Oc1ccc(F)cc1 [Compound 53, 2-(4-Fluorophenoxy)-N-[2-(piperazin-1-yl)phenyl]-3-(trifluoromethyl)benzamide] | 3.94 | 13.0
13 | CC(=O)Nc1ccc(Oc2c(C(=O)Nc3ccccc3N3CCNCC3)cccc2C(F)(F)F)cc1 [Compound 54, 2-(4-Acetamidophenoxy)-N-[2-(piperazin-1-yl)phenyl]-3-(trifluoromethyl) benzamide] |  | 1.19
14 | O=C(Nc1ccccc1N1CCNCC1)c1cccc(C(F)(F)F)c1Sc1ccc(F)cc1 [Compound 55, 2-[(4-Fluorophenyl)sulfanyl]-N-[2-(piperazin-1-yl)phenyl]-3-(trifluoromethyl)benz-amide] | 6.65 | 10.2
15 | O=C(Nc1cccc(N2CCNCC2)c1)c1cccc(C(F)(F)F)c1Oc1ccc(F)cc1 [Compound 56, 2-(4-Fluorophenoxy)-N-[3-(piperazin-1-yl)phenyl]-3-(trifluoromethyl)benzamide] | 2.33 | 6.27
16 | O=C(Nc1ccc(N2CCNCC2)cc1)c1cccc(C(F)(F)F)c1Oc1ccc(F)cc1 [Compound 57, 2-(4-Fluorophenoxy)-N-[4-(piperazin-1-yl)phenyl]-3-(trifluoromethyl)benzamide] | 3.30 | 11.9
17 | O=C(Nc1ccc(N2CCNCC2)cc1)c1cccc(C(F)(F)F)c1Oc1ccccc1 [Compound 58, 2-Phenoxy-N-[4-(piperazin-1-yl)phenyl]-3-(trifluoromethyl)benzamide] | 1.52 | 6.79
18 | O=C(Nc1ccc(N2CCNCC2)cc1)c1ccccc1Oc1ccc(F)cc1 [Compound 59, 2-(4-Fluorophenoxy)-N-[4-(piperazin-1-yl)phenyl]benzamide] | 19.1 | 12.5
19 | O=C(Nc1ccc(N2CCNCC2)cc1)c1cccc(F)c1Oc1ccc(F)cc1 [Compound 60, 3-Fluoro-2-(4-fluorophenoxy)-N-[4-(piperazin-1-yl)phenyl]benzamide] | 5.57 | 8.68
20 | O=C(Nc1ccc(N2CCNCC2)cc1)c1cccc([N+](=O)[O-])c1Oc1ccc(F)cc1 [Compound 61, 2-(4-Fluorophenoxy)-3-nitro-N-[4-(piperazin-1-yl)phenyl]benzamide] | 7.27 | 10.7
21 | O=C(Nc1ccc(N2CCNCC2)cc1)c1cccc(C(F)(F)F)c1Sc1ccc(F)cc1 [Compound 62, 2-[(4-Fluorophenyl)sulfanyl]-N-[4-(piperazin-1-yl)phenyl]-3-(trifluoromethyl)benz-amide] | 5.59 | 7.88
22 | CC(=O)Nc1ccc(Oc2c(C(=O)Nc3ccc(N4CCNCC4)cc3)cccc2C(F)(F)F)cc1 [Compound 63, 2-(4-Acetamidophenoxy)-N-[4-(piperazin-1-yl)phenyl]-3-(trifluoromethyl)benzamide] |  | 7.24
23 | O=C(Nc1ccc(N2CCNCC2)cc1)c1ccccc1Oc1ccccc1 [Compound 64, 2-Phenoxy-N-[4-(piperazin-1-yl)phenyl]benzamide] | 5.28 | 17.4
24 | Nc1cccc(C(=O)Nc2ccc(N3CCNCC3)cc2)c1Oc1ccc(F)cc1 [Compound 65, 3-Amino-2-(4-fluorophenoxy)-N-[4-(piperazin-1-yl)phenyl]benzamide] | >14.3 | 22.4
25 | O=C(Nc1ccc(N2CCNCC2)cc1)c1cccc(C(F)(F)F)c1 [Compound 66, N-[4-(Piperazin-1-yl)phenyl]-3-(trifluoromethyl)benzamide] | 4.55 | 16.0
